Measured values: PMC5381078, “Carboxylate derivatives of tributyltin (IV) complexes as anticancer and antileishmanial agents” (DARU Journal of Pharmaceutical Sciences, 2017)

Tested on: promastigotes of Leishmania tropica kwh 23
Experiment: Antileishmanial activity (MTT assay)
Format: cell-based
Settings: antileishmanial LC50
Description: Antileishmanial activity against the promastigotes of Leishmania tropica kwh 23 was evaluated by a quantitative colorimetric assay using 3-(4,5-dimethylthiazol-2-yl)-2, 5-diphenyl tetrazolium bromide (MTT) with minor modifications. […] […] Negative control wells contained 1% DMSO in PBS. All samples were run in triplicate. Afterwards, plates were incubated for 4 h at 24 °C with 20 μL of MTT (4 mg/mL in distilled water) to determine the cell viability. Supernatant from each well was carefully removed leaving behind formazan crystals. Colored formazan crystals were dissolved in 100 μL of DMSO by setting those aside for 1 h to ensure complete dissolution. Cell viability was estimated by measuring absorbance at 540 nm using microplate reader and percentage growth inhibition was calculated.

Structure (SMILES) | Fold higher potency than Ch-409 [fold] | Fold lower potency compared with Ch-431 [fold]
CCC[CH2][Sn]([CH2]CCC)([CH2]CCC)[O]C(=O)/C=C\C(=O)Nc1ccc(C(=O)OCC)cc1 [Ch-431, ethyl (Z)-4-(4-oxo-4-((tributylstannyl)oxy)but-2-enamido)benzoate] | 12.23 | 
CCC[CH2][Sn]([CH2]CCC)([CH2]CCC)[O]C(=O)/C=C\C(=O)NC1CCCCC1 [Ch-442, tributylstannyl (Z)-4-(cyclohexylamino)-4-oxobut-2-enoate] | 10.84 | 1.12
CCC[CH2][Sn]([CH2]CCC)([CH2]CCC)[O]C(=O)CCC(=O)Nc1ccc(C(=O)[O][Sn]([CH2]CCC)([CH2]CCC)[CH2]CCC)cc1 [Ch-448, tributylstannyl 4-(4-oxo-4-((tributylstannyl)oxy)butanamido)benzoate] |  | 7.38
CCC[CH2][Sn]([CH2]CCC)([CH2]CCC)[O]C(=O)c1ccccc1C(=O)Nc1cccc2ccccc12 [Ch-450, tributylstannyl 2-(naphthalene-1-ylcarbamoyl)benzoate] |  | 4.62
CCC[CH2][Sn]([CH2]CCC)([CH2]CCC)[O]C(=O)/C=C\C(=O)Nc1ccccc1 [Ch-458, tributylstannyl (Z)-4-oxo-4-(phenylamino)but-2-enoate] |  | 3.28
CCC[CH2][Sn]([CH2]CCC)([CH2]CCC)[O]C(=O)/C=C\C(=O)Nc1cccc(C)c1C [Ch-459, tributylstannyl (Z)-4-((2,3-dimethylphenyl)amino)-4-oxobut-2-enoate] |  | 4.14
